Anti-infective test results gathered from many reports (values: NIAID ChemDB through PubChem).

All rows: tests in culture

Blank or dashed fields: not listed here. MIC50, MIC90 and the like: level of inhibition, or share of isolates inhibited. Zone: diameter of growth inhibition. Lines come from different laboratories, so protocols vary. a–b is a range or a potency band.

structure | organism | strain | method | measure | dose | value
Brc1cc(Br)c2ncnc(NCCNc3nc(NC4CC4)nc(N4CCN(c5ccccc5)CC4)n3)c2c1 | Aspergillus clavatus | MTCC 1323 | agar | MIC | - | 100 µg/mL
COc1ccc(Cn2nc(C3CC3)cc2NC(=O)c2cccc(OC)c2)cc1 | Aspergillus ochraceus | - | - | MIC | - | 22 µg/mL
OC[C@H]1O[C@@H](n2nc(-c3cccnc3)n(/N=C/c3ccccc3)c2=S)[C@H](O)[C@@H](O)[C@@H]1O | Aspergillus fumigatus | - | agar diffusion / agar | zone | 1 mg/mL | 1–5 mm
CC(=O)c1ccccc1O | Aspergillus fumigatus | - | agar | MIC100 | - | 106 µg/mL
CN(C/C=C/C#CC(C)(C)C)Cc1cccc2ccccc12 | Aspergillus fumigatus | NFI 0159 | - | MFC | - | 4 µg/mL
O=C(O)/C=C/c1ccc(O)c(O)c1 | Aspergillus flavus | - | agar | MIC100 | - | >1000 µg/mL
OC[C@H]1O[C@@H](n2[nH]c(-c3cccnc3)nc2=S)[C@H](O)[C@@H](O)[C@@H]1O | Aspergillus fumigatus | - | agar diffusion / agar | zone | 5 mg/mL | 1–5 mm
CC1CC(C)CN(c2nc(NCCNc3ncnc4c(Br)cc(Br)cc34)nc(NC3CC3)n2)C1 | Aspergillus clavatus | MTCC 1323 | agar | MIC | - | 100 µg/mL
C[C@H]1[C@H](O)[C@@H](C)/C=C/C=C/C=C/C=C/C=C/C=C/C=C/[C@H](O[C@@H]2O[C@H](C)[C@@H](O)[C@H](N)[C@@H]2O)C[C@@H]2O[C@](O)(C[C@@H](O)C[C@@H](O)CC[C@H](O)[C@@H](O)C[C@@H](O)CC(=O)O[C@H]1C)C[C@H](O)[C@H]2C(=O)O | Aspergillus fumigatus | NFI 0239 | - | MFC | - | 2 µg/mL
Cc1ccc(N2NOC(=O)C2S(=O)(=O)Nc2nc(-c3ccc(Br)cc3)cs2)cc1 | Aspergillus clavatus | MTCC323 | agar diffusion | zone | 250 µg/mL | 21 mm
CC1=CC(=O)c2c(O)cccc2C1=O | Aspergillus oryzae | CCAM 080006 | broth dilution | MIC100 | - | 0.625 µg/mL
CCCCC1OC(=O)C2CC=CCC12 | Aspergillus glaucus | AM211 | - | MIC | - | >350 µg/mL
O=C1C=C(N2CCOCC2)C(=O)c2ccccc21 | Aspergillus ochraceus | MTCC 4893 | broth dilution | MIC100 | - | 125 µg/mL
Cc1ccc(N2NOC(=O)C2S(=O)(=O)Nc2nc3cc(C)ccc3s2)cc1 | Aspergillus clavatus | MTCC323 | broth dilution | MIC | - | 500 µg/mL
COc1ccc(OC)c(C=O)c1 | Aspergillus terreus | UAB698 | agar | MIC | - | 1000 µM
Cc1ccc(N2NOC(=O)C2S(=O)(=O)Nc2nc(-c3ccc(Cl)cc3Cl)cs2)cc1 | Aspergillus clavatus | MTCC323 | broth dilution | MIC | - | 500 µg/mL
O=C1C(=O)c2ccccc2-c2ccccc21 | Aspergillus oryzae | KACC 44823 | visual reading | MIC | - | 40 µg/mL
O=C(O)c1ccccc1O | Aspergillus flavus | - | agar | MIC100 | - | >1000 µg/mL
CC(=O)OC[C@H]1O[C@@H](n2nc(-c3cccnc3)n(N)c2=S)[C@H](OC(C)=O)[C@@H](OC(C)=O)[C@@H]1OC(C)=O | Aspergillus fumigatus | - | agar diffusion / agar | zone | 1 mg/mL | 0 mm
C[C@H]1[C@H](O)[C@@H](C)/C=C/C=C/C=C/C=C/C=C/C=C/C=C/[C@H](O[C@@H]2O[C@H](C)[C@@H](O)[C@H](N)[C@@H]2O)C[C@@H]2O[C@](O)(C[C@@H](O)C[C@@H](O)CC[C@H](O)[C@@H](O)C[C@@H](O)CC(=O)O[C@H]1C)C[C@H](O)[C@H]2C(=O)O | Aspergillus fumigatus | 60 isolates | - | Geometric mean MIC | - | 0.94 µg/mL
O=C1C=C(NCCN2CCOCC2)C(=O)c2ccccc21 | Aspergillus parasiticus | MTCC 2797 | broth dilution | MIC100 | - | 125 µg/mL
CC(=O)OC[C@H]1O[C@@H](n2nc(-c3cccnc3)n(/N=C/c3ccc(Cl)cc3)c2=S)[C@H](OC(C)=O)[C@@H](OC(C)=O)[C@@H]1OC(C)=O | Aspergillus fumigatus | - | agar diffusion / agar | zone | 1 mg/mL | 0 mm
CN1CCN(c2nc(NCCNc3ncnc4c(Br)cc(Br)cc34)nc(NC3CC3)n2)CC1 | Aspergillus clavatus | MTCC 1323 | agar | MIC | - | 100 µg/mL
COc1ccc(Cn2nc(C3CC3)cc2NC(=O)c2ccc(F)cc2F)cc1 | Aspergillus ochraceus | - | - | MIC | - | 24 µg/mL
CCc1ccc(O)cc1 | Aspergillus flavus | - | agar | MIC100 | - | 207 µg/mL
C[C@@H]1[C@H](O)[C@@H](C)/C=C/C=C/CC/C=C/C=C/C=C/C=C/C(O[C@H]2O[C@H](C)[C@@H](O)[C@H](N)[C@@H]2O)CC2O[C@](O)(CC(O)C(O)CCC(O)CC(O)CC(O)CC(=O)O[C@H]1C)CC(O)C2C(=O)O | Aspergillus ochraceus | - | - | MIC | - | 39 µg/mL
Clc1cccc(N2CCN(c3nc(NCCNc4ncnc5c(Br)cc(Br)cc45)nc(NC4CC4)n3)CC2)c1Cl | Aspergillus clavatus | MTCC 1323 | agar | MIC | - | 100 µg/mL
Cc1ccc(N2NOC(=O)C2S(=O)(=O)Nc2ccc(-n3c(-c4ccc(Cl)cc4)nc4ccccc4c3=O)cc2)cc1 | Aspergillus clavatus | MTCC323 | agar diffusion | zone | 250 µg/mL | 25 mm
CNC1=CC(=O)c2ccccc2C1=O | Aspergillus ochraceus | MTCC 4893 | broth dilution | MIC100 | - | 125 µg/mL
COc1cccc(C=O)c1OC | Aspergillus terreus | UAB698 | agar | MIC | - | 2000 µM
Cc1ccc(N2NOC(=O)C2S(=O)(=O)Nc2nc3ccc(C)cc3s2)cc1 | Aspergillus clavatus | MTCC323 | broth dilution | MIC | - | 500 µg/mL
O=C1OCC2CC=CCC12 | Aspergillus glaucus | AM211 | - | MIC | - | >350 µg/mL
CC(=O)OC[C@H]1O[C@@H](n2[nH]c(-c3ccccc3)[n+](/N=C/c3ccc(Cl)cc3)c2=S)[C@H](OC(C)=O)[C@@H](OC(C)=O)[C@@H]1OC(C)=O | Aspergillus fumigatus | - | agar diffusion / agar | zone | 1 mg/mL | 1–5 mm
Cc1ccc(N2NOC(=O)C2S(=O)(=O)Nc2ccc(-n3c(-c4c(Cl)cccc4[N+](=O)[O-])nc4ccccc4c3=O)cc2)cc1 | Aspergillus clavatus | MTCC323 | agar diffusion | zone | 250 µg/mL | 23 mm
[Al]#[P] | Aspergillus ochraceus | - | agar | MFC | - | 4.5 µg/mL
CN(C/C=C/C#CC(C)(C)C)Cc1cccc2ccccc12 | Aspergillus fumigatus | - | agar diffusion / agar | zone | 2.5 mg/mL | 10–15 mm
C[C@@H]1[C@H](O)[C@@H](C)/C=C/C=C/CC/C=C/C=C/C=C/C=C/C(O[C@H]2O[C@H](C)[C@@H](O)[C@H](N)[C@@H]2O)CC2O[C@](O)(CC(O)C(O)CCC(O)CC(O)CC(O)CC(=O)O[C@H]1C)CC(O)C2C(=O)O | Aspergillus clavatus | MTCC 1323 | - | MIC | - | 100 µg/mL
CC(C)c1cc2c(c(O)c1O)[C@@]13CCCC(C)(C)C1C[C@@H]2OC3=O | Aspergillus tubingensis | - | agar diffusion | zone | 200 µg/mL | 0 mm
Clc1cccc(N2CCN(c3nc(NCCNc4ncnc5c(Br)cc(Br)cc45)nc(NC4CC4)n3)CC2)c1 | Aspergillus clavatus | MTCC 1323 | agar | MIC | - | 100 µg/mL
COc1cc(C)ccc1O | Aspergillus fumigatus | - | agar | MIC50 | - | 115 µg/mL
C=CCc1ccc(O)c(OC)c1 | Aspergillus flavus | NRRL 501 | broth dilution | MFC | - | 320 µg/mL
O=C1N[C@H]2C=C[C@@H]1C2 | Aspergillus glaucus | AM211 | - | MIC | - | 282.4 µg/mL
C[C@@H]1[C@H](O)[C@@H](C)/C=C/C=C/CC/C=C/C=C/C=C/C=C/C(O[C@H]2O[C@H](C)[C@@H](O)[C@H](N)[C@@H]2O)CC2O[C@](O)(CC(O)C(O)CCC(O)CC(O)CC(O)CC(=O)O[C@H]1C)CC(O)C2C(=O)O | Aspergillus parasiticus | MTCC 2797 | broth dilution | MIC100 | - | 250 µg/mL
COc1ccccc1C=O | Aspergillus terreus | UAB673 | agar | MIC | - | 2500 µM
O=C1NC2CC1C1OC21 | Aspergillus glaucus | AM211 | - | MIC | - | 107.1 µg/mL
CC(=O)OC[C@H]1O[C@@H](Sc2ncc(-c3cccnc3)n2N)[C@H](OC(C)=O)[C@@H](OC(C)=O)[C@@H]1OC(C)=O | Aspergillus fumigatus | - | agar diffusion / agar | zone | 5 mg/mL | 1–5 mm
CC1=C(Cl)C(O)=CC(=O)C12Oc1cc(O)c(Cl)c(C)c1C2=O | Aspergillus clavatus | MTCC 1323 | broth dilution | MIC | - | 100 µg/mL
Cc1ccc(N2NOC(=O)C2S(=O)(=O)Nc2ccc(-n3c(-c4ccc([N+](=O)[O-])cc4)nc4ccccc4c3=O)cc2)cc1 | Aspergillus clavatus | MTCC323 | broth dilution | MIC | - | 500 µg/mL
O=C(O)c1cc(O)c(O)c(O)c1 | Aspergillus flavus | - | agar | MIC100 | - | >1000 µg/mL
Clc1ccc(C(c2ccccc2)N2CCN(c3nc(Cl)nc(NC4CC4)n3)CC2)cc1 | Aspergillus clavatus | MTCC 1323 | agar | MIC | - | 100 µg/mL

3 of the rows above, restated:

structure	organism	strain	method	measure	dose	value
OC[C@H]1O[C@@H](n2[nH]c(-c3cccnc3)nc2=S)[C@H](O)[C@@H](O)[C@@H]1O	Aspergillus fumigatus	-	agar diffusion / agar	zone	5 mg/mL	1–5 mm
CC(=O)OC[C@H]1O[C@@H](Sc2ncc(-c3cccnc3)n2N)[C@H](OC(C)=O)[C@@H](OC(C)=O)[C@@H]1OC(C)=O	Aspergillus fumigatus	-	agar diffusion / agar	zone	5 mg/mL	1–5 mm
C=CCc1ccc(O)c(OC)c1	Aspergillus flavus	NRRL 501	broth dilution	MFC	-	320 µg/mL